Anti-infective test results gathered from many reports (values: NIAID ChemDB through PubChem).

Shared fields: enzyme or target tests; agent: HIV; protein: Reverse transcriptase

ICn is the concentration giving n% inhibition.

SMILES | endpoint | mutations | read by | dose | value
S=C(CCCc1ccccc1)Nc1ccc(Cl)cn1 | IC50 | K103N | radiometric | - | >100 µM
Nc1ncnc2c1ncn2[C@H]1CC[C@@H](COP(=O)(O)OP(=O)(O)OP(=O)(O)O)O1 | Ki | RT-T215Y | - | - | 5.2 µM
S=C(Cc1ccccn1)NCc1ccccc1Cl | IC50 | K103N | radiometric | - | >100 µM
Nc1ccn([C@@H]2CC[C@H](COP(=O)(O)OP(=O)(O)OP(=O)(O)O)O2)c(=O)n1 | Ki | RT-Y188L | nucleotide incorporation / radiometric | - | 14 µM
Nc1ccn([C@H]2CC[C@@H](COP(=O)(O)OP(=O)(O)OP(=O)(O)OP(=O)(O)OC[C@@H]3CC[C@H](n4ccc(N)nc4=O)O3)O2)c(=O)n1 | fold resistance | RT-M41L T215Y | nucleotide incorporation / radiometric | - | 0.53
CCOC(=O)c1c(C(C)C)c(C#N)c(=N)n2ccccc12 | inhibition | - | - | 80 µM | 45%
CCOCn1c(Sc2ccccc2)c(CC)c(=O)[nH]c1=O | fold resistance | RT-F61L | nucleotide incorporation | - | 0.5
S=C(Cc1ccccn1)NCCc1ccccc1 | IC50 | K103N | radiometric | - | 92.7 µM
CN(C)c1nc(Cc2c(F)cccc2F)cc(=O)[nH]1 | Ki | K103N | nucleotide incorporation | - | 3 µM
Nc1nc2c(ncn2[C@H]2CO[C@@H](COP(=O)(O)OP(=O)(O)OP(=O)(O)O)O2)c(=O)[nH]1 | Ki | RT-K65R Q151M | radiometric | - | 0.766 µM
Nc1ncnc2c1ccn2[C@H]1C[C@H](F)[C@@H](COP(=O)(O)OP(=O)(O)OP(=O)(O)O)O1 | fold resistance | RT-W88G | nucleotide incorporation / radiometric | - | 2.8
CSc1ncc(C(N)=O)c(Nc2ccc3cn[nH]c3c2)n1 | inhibition | - | ELISA | 0.1 µg/mL | 48%
CC(C)OC(=O)c1cc(NC(=S)OC(C)C)ccc1Cl | IC50 | K103N | radiometric | - | 45.5 µM
CC(C)=CCN1Cc2cccc3[nH]c(=S)n(c23)C[C@@H]1C | Ki | - | nucleotide incorporation | - | 0.41 µM
Nc1ccn([C@H]2CC[C@@H](COP(=O)(O)OP(=O)(O)OP(=O)(O)O)O2)c(=O)n1 | fold resistance | RT-L74V | - | - | 3.33
Nc1ncnc2c1ncn2[C@H]1CC[C@@H](COP(=O)(O)OP(=O)(O)OP(=O)(O)O)O1 | Ki | RT-V75I F77L F116Y Q151M | nucleotide incorporation / radiometric | - | 4.6 µM
CN(C)CCCN=C(N)c1ccc(C(N)=NCCCN(C)C)cc1 | Ki | - | nucleotide incorporation / radiometric | - | 7.4 µM
CNc1ccccc1C(=O)O[C@H]1[C@@H](O)[C@H](n2cnc3c(N)ncnc32)O[C@@H]1COP(=O)(O)OP(=O)(O)OP(=O)(O)OP(=O)(O)OC[C@@H]1CC[C@H](n2cnc3c(=O)[nH]c(N)nc32)O1 | IC50 | RT-D67N K70R T215Y K219Q | nucleotide incorporation / radiometric | - | 0.83 µM
Nc1nc2c(ncn2[C@H]2CC[C@@H](COP(=O)(O)OP(=O)(O)OP(=O)(O)O)O2)c(=O)[nH]1 | IC50 | RT-V75I F77L F116Y Q151M | nucleotide incorporation / radiometric | - | 0.17 µM
Cc1cc(Cc2ccc(Cl)c(Oc3cc(C#N)cc(C#N)c3)c2F)n[nH]c1=O | IC50 | K103N L100I | - | - | 0.007 µM
Cc1cn([C@H]2CC[C@@H](COP(=O)(O)OP(=O)(O)OP(=O)(O)OP(=O)(O)OC[C@@H]3CC[C@H](n4cc(C)c(=O)[nH]c4=O)O3)O2)c(=O)[nH]c1=O | IC50 | RT-K65R | nucleotide incorporation / radiometric | - | 42 µM

3 of the rows above, restated:

S=C(Cc1ccccn1)NCCc1ccccc1 ; endpoint: IC50 ; mutations: K103N ; read by: radiometric ; value: 92.7 µM
CSc1ncc(C(N)=O)c(Nc2ccc3cn[nH]c3c2)n1 ; endpoint: inhibition ; read by: ELISA ; dose: 0.1 µg/mL ; value: 48%
Cc1cn([C@H]2CC[C@@H](COP(=O)(O)OP(=O)(O)OP(=O)(O)OP(=O)(O)OC[C@@H]3CC[C@H](n4cc(C)c(=O)[nH]c4=O)O3)O2)c(=O)[nH]c1=O ; endpoint: IC50 ; mutations: RT-K65R ; read by: nucleotide incorporation / radiometric ; value: 42 µM

Percent inhibition refers to the dose given; in toxicity tests it is the harm to the cells. Neighbouring rows are from separate reports. Fold resistance has wild type as its base. An empty or dashed field is not shown.